Earlier results in patent publication US5837729A, “Methods for treating and preventing HIV infection using acetaminophen and derivatives thereof” (priority 1996, dated 1998).

Tested on: HIV
Conditions: background, earlier work of inventor; cited from earlier work

Substance: human chorionic gonadotropin: human chorionic gonadotropin
- anti-HIV effect / inhibition of HIV replication (in words): anti-HIV effect
